Pooled drug test results. Numbers come from NIAID ChemDB, via PubChem.

Shared fields: cytotoxicity tests; cell line: MOLT-4; read-out: CC50

CCn: concentration that lowers growth or viability of the cells by n%. Conditions beyond the fields shown may differ between rows.

smiles	result
CN=C1CN=C(c2ccc[nH]2)c2cc(Cl)ccc2N1	1.8 µg/mL
Cc1ccc(NC(=O)C23CC4CC(CC(C4)C2)C3)c(C(=O)N/N=C/c2cccs2)c1	48.6 µM
Nc1nc(NC2CC2)c2ncn([C@H]3C=C[C@@H](CO)C3)c2n1	18 µM
CCn1cc(C(=O)O)c(=O)c2cc(F)c(N3CCN(c4ccccc4OC)CC3)c(OC(F)F)c21	6.6 µM
Nc1nc(NC2CC2)c2ncn([C@H]3C=C[C@@H](CO)O3)c2n1	75 µM
CCCNC(=O)c1cc(Cl)ccc1NC(=O)C12CC3CC(CC(C3)C1)C2	22.4 µM
CCOCn1c(Sc2cc(C)cc(C)c2)c(CC)c(=O)[nH]c1=S	>100 µM
CCCCCCCCCCCCCCCC(=O)Nc1cc(S(=O)(=O)O)cc2cc(S(=O)(=O)O)cc(O)c12	230 µM
Nc1ccn([C@H]2CC[C@@H](CO)O2)c(=O)n1	1.4 µM
CCOCn1c(Cc2cc(C)cc(C)c2)c(CC)c(=O)[nH]c1=O	168 µM
COc1cc(NC(=O)C23CC4CC(CC(C4)C2)C3)c(C(=O)NN)cc1OC	17.4 µM
Nc1ccn([C@H]2CC[C@@H](CO)O2)c(=O)n1	10 µM
CCNC(=O)c1cc(C)ccc1NC(=O)C12CC3CC(CC(C3)C1)C2	34.6 µM
O=S(=O)(O)c1cc(O)c2c(NS(=O)(=O)c3ccc(-c4ccc(S(=O)(=O)Nc5cc(S(=O)(=O)O)cc6cc(S(=O)(=O)O)cc(O)c56)cc4)cc3)cc(S(=O)(=O)O)cc2c1	>500 µM
NC(=O)c1csc([C@@H]2O[C@H](CO)[C@@H](O)[C@H]2O)n1	5.2 µM
Cc1ccc(/C=N/NC(=O)c2cc(Cl)ccc2NC(=O)C23CC4CC(CC(C4)C2)C3)o1	39.9 µM
Nc1ccn([C@@H]2CC[C@H](CO)O2)c(=O)n1	22 µM
Cc1ccc(NC(=O)C23CC4CC(CC(C4)C2)C3)c(C(=O)NN)c1	9.2 µM
O=c1ccn([C@H]2CC[C@@H](CO)O2)c(=O)[nH]1	322 µg/mL
O=C(O)c1cn(C2CC2)c2c(OC(F)F)c(N3CCN(c4ncccn4)CC3)c(F)cc2c1=O	15 µM
CCCN(C)C(=O)Oc1nsnc1-c1c(Cl)ccc(N)c1Cl	54 µM
CN=C1CN=C(c2ccc[nH]2)c2cc(Cl)ccc2N1	2.8 µM
Nc1nc(N)c2ncn([C@H]3CO[C@@H](CO)O3)c2n1	>500 µM
O=C(N/N=C/c1cccs1)c1cc(Cl)ccc1NC(=O)C12CC3CC(CC(C3)C1)C2	50.6 µM
CC(C)(C)OC(=O)[C@@H]1CCCN1C[C@H](O)[C@H](Cc1ccccc1)NC(=O)[C@H](CC(N)=O)NC(=O)OCc1ccccc1	214 µg/mL
NC(=O)c1c[se]c(C2OC(CO)C(O)C2O)c1	0.3 µM
CCOP(=O)(N[C@@H](CC(C)C)C(=O)OC)OC[C@H]1O[C@@H](n2cc(C)c(=O)[nH]c2=O)C[C@@H]1N=[N+]=[N-]	322 µg/mL
Cc1cn([C@H]2C[C@H](N=[N+]=[N-])[C@@H](CO)O2)c(=O)[nH]c1=O	3 µM

Again, the opening 4 rows:

smiles | result
CN=C1CN=C(c2ccc[nH]2)c2cc(Cl)ccc2N1 | 1.8 µg/mL
Cc1ccc(NC(=O)C23CC4CC(CC(C4)C2)C3)c(C(=O)N/N=C/c2cccs2)c1 | 48.6 µM
Nc1nc(NC2CC2)c2ncn([C@H]3C=C[C@@H](CO)C3)c2n1 | 18 µM
CCn1cc(C(=O)O)c(=O)c2cc(F)c(N3CCN(c4ccccc4OC)CC3)c(OC(F)F)c21 | 6.6 µM